# Measurements: US10258597B2, “Method for treating a glycoprotein-related disease” (dated 2019)
# Legend:
# [1] = test system: Canine parvovirus; experiment: Clinical experiments on canine parvovirus (PCR virus detection)
# [2] = test system: Feline coronavirus; experiment: Clinical experiments on feline coronavirus (PCR virus detection); settings: Cat 150430, Blood, total days 8
# [3] = test system: Feline panleukopenia virus; experiment: Clinical experiments on feline panleukopenia virus (PCR virus detection)
# [4] = test system: Feline leukemia virus; experiment: Clinical experiments on Feline leukemia virus (PCR virus detection); settings: Cat 130730, Blood, total days 9, company V
# [5] = test system: 7 virus species belonged to 5 families; experiment: Clinical experiments on virus infected dogs and cats, overall summary; settings: Tables 2-1 to 2-7
# [6] = test system: Felid herpesvirus 1; experiment: Clinical experiments on felid herpesvirus 1 (PCR virus detection)
# [7] = test system: Canine distemper virus; experiment: Clinical experiments on canine distemper virus (PCR virus detection)
# [8] = test system: Feline immunodeficiency virus; experiment: Clinical experiments on feline immunodeficiency virus (PCR virus detection); settings: Blood, company V
substance,measurement,setting,value
monosodium methanearsonate,Results (virus amount),"[1]; Dog 140413, Blood, Day 0, total days 10",0.00105804 ng/µL
same,Results (virus amount),"[1]; Dog 140413, Blood, Day 3, total days 10",3.56e-05 ng/µL
same,Results (virus amount),"[1]; Dog 140413, Blood, Day 9, total days 10",5.314e-05 ng/µL
same,Results (virus amount),"[1]; Dog 140413, Blood, Day 11, total days 10",1.837e-06 ng/µL
same,Results (virus amount),"[1]; Dog 140529, Feces (not quantitative detection), Day 0, total days 4",0.00932918 ng/µL
same,Results (virus amount),"[1]; Dog 140529, Feces (not quantitative detection), Day 4, total days 4",0.00028836 ng/µL
same,Results (virus amount),"[1]; Dog 150125, Blood, Day 0, total days 7",0.00046322 ng/µL
same,Results (virus amount),"[1]; Dog 150125, Blood, Day 3, total days 7",3.45e-06 ng/µL
same,Results (virus amount),"[1]; Dog 150125, Blood, Day 5, total days 7",7.5e-07 ng/µL
same,Results (virus amount),"[1]; Dog 150125, Blood, Day 6, total days 7",4e-07 ng/µL
same,Results (virus amount),"[1]; Dog 150125, Blood, Day 11, total days 7",•
same,Results (virus amount),"[1]; Dog 150708, Blood, Day 0, total days 10",0.004072424 ng/µL
same,Results (virus amount),"[1]; Dog 150708, Blood, Day 8, total days 10",0.00026969 ng/µL
same,Results (virus amount),"[1]; Dog 150708, Blood, Day 15, total days 10",1.856e-05 ng/µL
same,Results (virus amount),"[1]; Dog 150716, Blood, Day 0, total days 10",0.00458306 ng/µL
same,Results (virus amount),"[1]; Dog 150716, Feces (*d), Day 10, total days 10",2.47e-05 ng/µL
same,Results (virus amount),[2]; Day 0,0.00417338 ng/µL
same,Results (virus amount),[2]; Day 8,•
same,Results (virus amount),"[3]; Cat 140512, Blood, Day 0, total days 8",1.4367e-05 ng/µL
same,Results (virus amount),"[3]; Cat 140512, Blood, Day 7, total days 8",•
same,Results (virus amount),"[3]; Cat 141128, Blood, Day 0, total days 10",0.00130942 ng/µL
same,Results (virus amount),"[3]; Cat 141128, Blood, Day 6, total days 10",1.088e-05 ng/µL
same,Results (virus amount),"[3]; Cat 141128, Blood, Day 7, total days 10",2.5e-07 ng/µL
same,Results (virus amount),"[3]; Cat 141128, Blood, Day 8, total days 10",7.9e-07 ng/µL
same,Results (virus amount),"[3]; Cat 150323, Feces (not quantitative detection), Day 0, total days 12",0.04240717 ng/µL
same,Results (virus amount),"[3]; Cat 150323, Feces (not quantitative detection), Day 6, total days 12",0.22391915 ng/µL
same,Results (virus amount),"[3]; Cat 150323, Feces (not quantitative detection), Day 15, total days 12",7.11e-06 ng/µL
same,Results (virus amount),"[3]; Cat 150323, Feces (not quantitative detection), Day 21, total days 12",1.4e-07 ng/µL
same,Results (virus amount),"[3]; Cat 150529, Blood, Day 0, total days 12",1.217e-05 ng/µL
same,Results (virus amount),"[3]; Cat 150529, Blood, Day 15, total days 12",•
same,Results (virus detection),[4]; Day 0,+ (*^a)
same,Results (virus detection),[4]; Day 9,− (*^b)
same,administered period (average),[5],9 days
same,Results (virus amount),"[6]; Cat 150417, Blood, Day 0, total days 12",0.01528214 ng/µL
same,Results (virus amount),"[6]; Cat 150417, Blood, Day 4, total days 12",2.14e-06 ng/µL
same,Results (virus amount),"[6]; Cat 150417, Blood, Day 13, total days 12",•
same,Results (virus amount),"[6]; Cat 150502, Nasal secretion (not quantitative detection), Day 0, total days 10",1.518e-05 ng/µL
same,Results (virus amount),"[6]; Cat 150502, Nasal secretion (not quantitative detection), Day 10, total days 10",3.75e-07 ng/µL
same,Results (virus amount),"[6]; Cat 150507, Blood, Day 7, total days 9",•
same,Results (virus amount),"[6]; Cat 150516, Blood, Day 0, total days 8",0.00022825 ng/µL
same,Results (virus amount),"[6]; Cat 150516, Blood, Day 15, total days 8",6.971e-06 ng/µL
same,Results (virus amount),"[7]; Dog 140617, Blood, Day 0, total days 3",2.8e-07 ng/µL
same,Results (virus amount),"[7]; Dog 140617, Blood, Day 3, total days 3",•
same,Results (virus amount),"[7]; Dog 140701, Nasal secretion (not quantitative detection), Day 0, total days 14",1.341e-05 ng/µL
same,Results (virus amount),"[7]; Dog 140701, Nasal secretion (not quantitative detection), Day 4, total days 14",3.34e-06 ng/µL
same,Results (virus amount),"[7]; Dog 140701, Nasal secretion (not quantitative detection), Day 10, total days 14",1.16e-06 ng/µL
same,Results (virus amount),"[7]; Dog 140701, Nasal secretion, Day 14, total days 14",•
same,Results (virus amount),"[7]; Dog 140703, Nasal secretion (not quantitative detection), Day 0, total days 12",2.4e-07 ng/µL
same,Results (virus amount),"[7]; Dog 140703, Nasal secretion (not quantitative detection), Day 3, total days 12",3.12e-06 ng/µL
same,Results (virus amount),"[7]; Dog 140703, Nasal secretion (not quantitative detection), Day 10, total days 12",6.1e-07 ng/µL
same,Results (virus amount),"[7]; Dog 140703, Nasal secretion, Day 12, total days 12",•
same,Results (virus amount),"[7]; Dog 140808-1, Blood, Day 0, total days 12",3.5e-06 ng/µL
same,Results (virus amount),"[7]; Dog 140808-1, Blood, Day 8, total days 12",2.64e-06 ng/µL
same,Results (virus amount),"[7]; Dog 140808-1, Blood, Day 12, total days 12",•
same,Results (virus amount),"[7]; Dog 140808, Blood, Day 0, total days 11",3.1e-06 ng/µL
same,Results (virus amount),"[7]; Dog 140808, Blood, Day 7, total days 11",3.5e-06 ng/µL
same,Results (virus amount),"[7]; Dog 140808, Blood, Day 11, total days 11",•
same,Results (virus detection),"[8]; Cat 130730, Day 0, total days 9",+ (*^a)
same,Results (virus detection),"[8]; Cat 130730, Day 9, total days 9",− (*^b)
same,Results (virus detection),"[8]; Cat 130805, Day 0, total days 14",+ (*^a)
same,Results (virus detection),"[8]; Cat 130805, Day 14, total days 14",− (*^b)
